Pooled drug test results. Numbers come from NIAID ChemDB, via PubChem.

Shared fields: whole-cell or culture tests; species: Mycobacterium tuberculosis

MIC bound comes from a single tested concentration. Rows are shuffled and stem from different studies. ECn: concentration that inhibits the pathogen or its effect by n%. Blank or dashed fields: not listed here. MIC50, MIC90 and the like: level of inhibition, or share of isolates inhibited. Inhibition is in % at the dose shown (toxicity tests: loss of growth or viability).

smiles,changes,measure,cells,tested at,method,strain,setting,value
Cc1ccc(S(=O)(=O)NC(=O)OCCc2c3ccccc3nc3ccccc23)cc1,-,MIC bound,-,-,BACTEC,H37Rv,-,≤12.5 µg/mL
C[C@]1(COc2ccc(N3CCC(Oc4ccc(OC(F)(F)F)cc4)CC3)cc2)Cn2cc([N+](=O)[O-])nc2O1,-,MIC,-,-,-,ATCC 25618 (H37RV),-,0.012 µg/mL
COc1c(N2CC[C@@H](C(C)(C)N)C2)c(F)cc2c(=O)c3c(=O)[nH]sc3n(C3CC3)c12,-,MIC,-,-,-,Pan-susceptible clinical isolate 7,-,0.06 µg/mL
Cc1cccc(CSc2ncnc3nc[nH]c23)c1,-,inhibition,-,6.25 µg/mL,-,H37Rv,-,0%
COc1ccc(C(=O)/C=C/c2ccccc2Cl)cc1,-,MIC,-,-,resazurin,H37Rv,21 d,32 µg/mL
CCn1c(-c2ccc(N=Nc3c(C)[nH][nH]c3=O)cc2)n[nH]c1=S,-,inhibition,-,12.5 µg/mL,-,H37Rv,-,0%
Cc1ccc(NCCN(C)C)c2c(=O)c3cc(O)ccc3oc12,-,MIC,-,-,-,EMB-R,-,12.5 µg/mL
O=C(NNC(=O)c1ccncc1)Nc1cc(Cl)cc(Cl)c1,-,MIC100,-,-,broth dilution,My 331/88,14 d,32 µM
CCCCCCCCCN1C(=O)CC(SCCNC(=O)c2ccc(C)cc2)C1=O,-,MIC,-,-,-,Clinical isolate (isoniazid-resistant),-,≤20 µg/mL
CCCCCCCNC(=O)NNC(=O)c1ccncc1,-,MIC100,-,-,broth dilution,My 331/88,21 d,32 µM
Cc1cccc(CSc2ccncc2)c1,-,MIC90,-,-,-,H37Rv,-,>6.25 µg/mL
CO[C@H]1/C=C/O[C@@]2(C)Oc3c(C)c(O)c4c(O)c(c(/C=N/N5CCN(C6CCCC6)CC5)c(O)c4c3C2=O)NC(=O)/C(C)=C\C=C\[C@H](C)[C@H](O)[C@@H](C)[C@@H](O)[C@@H](C)[C@H](OC(C)=O)[C@@H]1C,-,Median MIC,-,-,-,H37Ra,-,≤0.006 µg/mL
O=C(c1cn(-c2cccc3ccccc23)nn1)c1ccc(Cl)cc1Cl,-,inhibition,-,12.5 µg/mL,-,H37Rv,-,0%
Cc1nn(C(=O)c2ccncc2)c2c1C(c1ccccc1)SC(N)=N2,-,MIC bound,-,-,BACTEC,H37Rv,-,≤12.5 µg/mL
CC[C@H]1OC(=O)[C@H](C)[C@@H](O[C@H]2C[C@@](C)(OC)[C@@H](O)[C@H](C)O2)[C@H](C)[C@@H](O[C@@H]2O[C@H](C)C[C@H](N(C)C)[C@H]2O)[C@](C)(OC)C[C@@H](C)C(=O)[C@H](C)[C@@H](O)[C@]1(C)O,-,Mean MIC,-,-,-,H37Ra,-,1.88 µg/mL
CC1CCCN(CC(O)CN2C[C@@H](C)N(CC(O)CN3CCCC(C)C3)[C@H](C)C2)C1,-,MIC bound,-,-,BACTEC,H37Rv,-,>12.8 µg/mL
CCCCCCCCCN1C(=O)CC(SCCNC(=O)C2CCCC2)C1=O,-,MIC,-,-,-,Clinical isolate (isoniazid-resistant),-,≤20 µg/mL
Oc1nc2nc[nH]n2c1N=Nc1ccccc1,-,inhibition,-,12.5 µg/mL,BACTEC,H37Rv,-,23%
COc1ccc(Nc2nnc(-c3ccncc3)o2)cc1,-,MIC100,-,-,broth dilution,My 331/88,21 d,>125 µM
O=C(c1cn(-c2ccccc2)nn1)c1cccc2ccccc12,-,MIC,-,-,-,H37Rv,-,>12.5 µg/mL
O=c1[nH]n(CCc2ccccn2)c(=O)c(Cl)c1Cl,-,inhibition,-,6.25 µg/mL,BACTEC,H37Rv,-,42%
C[C@]1(COc2ccc(N3CCC(Oc4ccc(OC(F)(F)F)cc4)CC3)cc2)Cn2cc([N+](=O)[O-])nc2O1,-,MIC,-,-,-,Aoyama B,-,0.024 µg/mL
CO[C@H]1/C=C/O[C@@]2(C)Oc3c(C)c(O)c4c(O)c(c(/C=N/N5CCN(C)CC5)c(O)c4c3C2=O)NC(=O)/C(C)=C\C=C\[C@H](C)[C@H](O)[C@@H](C)[C@@H](O)[C@@H](C)[C@H](OC(C)=O)[C@@H]1C,-,MIC,-,-,-,H37Rv,-,0.06 µg/mL
CCOC(=O)c1cn(O)nn1,-,MIC,-,-,-,H37Rv,-,>12.5 µg/mL
COc1ccc(S(=O)(=O)NC(=S)S)cc1,-,MIC,-,-,-,PAS-R,-,>12.8 µg/mL
CCOC(=O)/C(N=Nc1ccc(-c2n[nH]c(=O)n2-c2ccccc2)cc1)=C(\C)O,-,MIC,-,-,-,H37Rv,-,>12.5 µg/mL
O=C(CN1C(=O)CCC1=O)Nc1ccc(N2CCCCC2)cc1,-,MIC,-,-,-,H37Rv,-,≤20 µg/mL
COc1c(N2CCNC(C)C2)c(F)cc2c(=O)c(C(=O)O)cn(C3CC3)c12,-,MIC50,-,-,-,27 strains (levofloxacin-susceptible),-,0.1 µg/mL
O=C(Cn1cnc2ccc([N+](=O)[O-])cc21)N1CCN(c2ccccc2)CC1,-,MIC bound,-,-,resazurin,H37Rv,-,>6.25 µg/mL
Cc1[nH]n(CCO)c(=O)c1N=Nc1ccc(-c2n[nH]c(=S)n2-c2ccccc2)cc1,-,inhibition,-,12.5 µg/mL,-,H37Rv,-,9%
CN[C@@H]1[C@H](O[C@H]2[C@H](O[C@H]3[C@H](O)[C@@H](O)[C@H](N=C(N)N)[C@@H](O)[C@@H]3N=C(N)N)O[C@@H](C)[C@]2(O)C=O)O[C@@H](CO)[C@H](O)[C@H]1O,-,MIC,-,-,-,8666/2010,-,>27.5 µM
Nc1nc2n(O)cc(-c3ccccc3)nc-2c(=O)n1,-,MIC bound,-,-,BACTEC,H37Rv,-,>12.5 µg/mL
Cc1nc2nc(S(=O)(=O)Nc3c(Br)ccc4cccnc34)nn2c2c1CCC2,INH RIF resistant,MIC50,-,-,visual reading,X24,-,2 µM
CCOC(=O)/C(N=Nc1ccc(-c2n[nH]c(=S)o2)cc1)=C(\C)O,-,inhibition,-,12.5 µg/mL,-,H37Rv,-,13%
CCCCCCCc1ccc(NC(=O)NNC(=O)c2ccncc2)cc1,-,MIC100,-,-,broth dilution,My 331/88,21 d,32 µM
O=C(/C=C/c1c(F)cccc1Cl)c1ccc(F)cc1,-,MIC,-,-,MTT,H37Rv,14 d,64 µg/mL
NNC(=O)c1ccncc1,-,MIC,-,-,-,PR819,-,10 µg/mL
O=C(/C=C/c1ccc(F)cc1)c1ccc(O)cc1,-,MIC,-,-,resazurin,H37Rv,7 d,32 µg/mL
CC(=O)c1cc([N+](=O)[O-])c2nc(C(C)(C)C)ccc2c1C(C)(C)C,-,MIC,-,-,-,H37Rv,-,>6.25 µg/mL
OC(c1cc(-c2ccccc2)nc2c(Cl)cc(Cl)cc12)C1CCCCN1,-,MIC,VERO,-,resazurin,H37Rv,-,3.13 µg/mL
Cc1c(N2C[C@@H](N)C3(CC3)C2)c(F)c(N)c2c(=O)c(C(=O)O)cn(C3CC3)c12,-,MIC90,-,-,-,18 strains (levofloxacin-resistant),-,50 µg/mL
O=C(/C=C/c1ccc(F)cc1Cl)c1ccccc1,-,MIC,-,-,resazurin,H37Rv,21 d,32 µg/mL
CO[C@H]1/C=C/O[C@@]2(C)Oc3c(C)c(O)c4c(O)c(c5c(c4c3C2=O)NC2(CCN(CC(C)C)CC2)N=5)=NC(=O)/C(C)=C\C=C\[C@H](C)[C@H](O)[C@@H](C)[C@@H](O)[C@@H](C)[C@H](OC(C)=O)[C@@H]1C,-,MIC,-,-,-,2219 (rifampicin-resistant),-,>2 µg/mL
O=[N+]([O-])c1cccc2ccc(C3CCCCC3)nc12,-,MIC,-,-,-,Ethambutol-resistant,-,25 µg/mL
COc1ncc(F)c2nc(S(=O)(=O)Nc3c(O)cccc3C(C)O)nn12,INH RIF resistant,MIC50,-,-,visual reading,P887,-,0.5 µM
CN(C)c1ccc(O)c2c1C[C@H]1C[C@H]3[C@H](N(C)C)C(=O)C(C(N)=O)=C(O)[C@@]3(O)C(=O)C1=C2O,-,Median MIC,-,-,-,H37Ra,-,1 µg/mL
COc1ccc(C(=O)/C=C/c2ccc(F)cc2Cl)cc1,-,MIC,-,-,MTT,H37Rv,21 d,64 µg/mL
COc1ccc2c3c1OC1CC(N4CCCC4)=C(c4c([N+](=O)[O-])cc([N+](=O)[O-])cc4[N+](=O)[O-])C4(O)C(C2)N(C)CCC314,-,MIC bound,-,-,BACTEC,H37Rv,-,>12.5 µg/mL
CC(=O)NC[C@H]1CN(c2ccc(N3CCN(c4ccc([N+](=O)[O-])s4)CC3)c(F)c2)C(=O)O1,-,MIC,-,-,-,H37Rv,-,≤0.125 µg/mL
NC(=O)c1ncsc1C(N)=O,-,inhibition,-,12.5 µg/mL,BACTEC,H37Rv,-,23%
NNC(=O)c1ccncc1,-,MIC50,-,-,-,22 strains (rifampin- isoniazid-resistant),-,12.5 µg/mL
O=c1c2cncnc2sc2nccn12,-,MIC bound,-,-,resazurin,H37Rv,-,>6.25 µg/mL
CO[C@H]1/C=C/O[C@@]2(C)Oc3c(C)c(O)c4c(O)c(c(/C=N/N5CCN(C)CC5)c(O)c4c3C2=O)NC(=O)/C(C)=C\C=C\[C@H](C)[C@H](O)[C@@H](C)[C@@H](O)[C@@H](C)[C@H](OC(C)=O)[C@@H]1C,-,Mean MIC,-,-,-,H37Ra,-,0.006 µg/mL
CCCCc1ccc(NC(=O)NNC(=O)c2ccncc2)cc1,-,MIC100,-,-,broth dilution,My 331/88,21 d,8 µM
Cc1[nH]n(-c2ccccc2)c(=O)c1N=Nc1ccc(-c2n[nH]c(=S)o2)cc1,-,EC50,-,-,-,H37Rv,-,<12.5 µg/mL
CCc1ccnc2c(N)cc(C(C)=O)c(OC(C)C)c12,-,inhibition,-,6.25 µg/mL,-,H37Rv,-,0%
COC1=CC(=O)N(C(=O)C2CSC(C(CO)NC(=O)c3csc(C=NO)n3)=N2)C1,-,MIC bound,-,-,BACTEC,H37Rv,-,>12.8 µg/mL
Cc1ccc(NC(=O)NNC(=O)c2ccncc2)cc1,-,MIC100,-,-,broth dilution,My 331/88,14 d,62.5 µM
CC(=O)O[C@H]1C[C@@]2(C)[C@@H](C[C@@H](O)[C@H]3[C@@]4(C)CC[C@@H](O)[C@@H](C)[C@@H]4CC[C@@]32C)/C1=C(\CCC=C(C)C)C(=O)O,-,Median MIC,-,-,-,H37Ra,-,3 µg/mL
CCc1ccnc2c([N+](=O)[O-])cc(C(C)=O)c(OC(C)C)c12,-,MIC,-,-,-,Rifampicin-resistant,-,50 µg/mL
O=C1CSC(c2cccc(C(F)(F)F)c2)N1c1nncs1,-,MIC bound,-,-,BACTEC,H37Rv,-,>12.5 µg/mL
Cc1ccc(CSc2nc(=O)[nH]c3nc[nH]c23)cc1,-,MIC90,-,-,-,H37Rv,-,>6.25 µg/mL
CC1=NN(C(=O)c2ccccc2)C(=O)C1N=Nc1ccccc1C(=O)O,-,inhibition,-,12.5 µg/mL,BACTEC,H37Rv,-,-2%
CCCCCCCOc1c(C(C)=O)cc([N+](=O)[O-])c2nccc(CC)c12,-,MIC,-,-,-,Isoniazid-resistant,-,6.25 µg/mL
O=C(/C=C/c1ccccc1Cl)c1ccc(F)cc1,-,MIC,-,-,MTT,H37Rv,-,32 µg/mL
CCCCSc1nc(Cl)nc2nc[nH]c12,-,inhibition,-,6.25 µg/mL,-,H37Rv,-,0%
S=C(S)N1CCCCC1,-,MIC,-,-,-,TAC-R,-,0.4 µg/mL
O=C(c1cn(-c2ccc(Cl)cc2)nn1)c1cccs1,-,MIC,-,-,-,H37Rv,-,>12.5 µg/mL
Cc1ccc(Cn2nnc(-c3cc([N+](=O)[O-])cc([N+](=O)[O-])c3)n2)cc1,-,MIC,-,-,-,Praha 131,21 d,0.125 µM
CCN(CCCl)c1cc(C(=O)Nc2cc(NC(=O)c3cc(N(CC)CCCl)c([N+](=O)[O-])cc3[N+](=O)[O-])cc(C(=O)NCCN(C)C)c2)c([N+](=O)[O-])cc1[N+](=O)[O-],-,MIC bound,-,-,resazurin,H37Rv,-,>6.25 µg/mL
CN[C@@H]1[C@@H](O)[C@@H](O[C@@H]2[C@@H](O)[C@H](O[C@H]3O[C@H](CN)CC[C@H]3N)[C@@H](N)C[C@H]2N)OC[C@]1(C)O,-,MIC,-,-,-,Praha 131,-,>8.37 µM
O=c1nc(SCc2ccc(F)cc2)c2[nH]cnc2[nH]1,-,inhibition,-,6.25 µg/mL,-,H37Rv,-,0%
O=C(/C=C/c1c(F)cccc1Cl)c1ccccc1,-,MIC,-,-,resazurin,H37Rv,14 d,16 µg/mL
Nc1ccc(C(=O)O)c(O)c1,-,Median MIC,-,-,-,H37Rv,-,0.75 µg/mL
CC(=O)n1nc(-c2ccc(N=Nc3c(C)[nH]n(-c4ccccc4)c3=O)cc2)n(-c2ccccc2)c1=S,-,MIC,-,-,-,H37Rv,-,>12.5 µg/mL
Cc1ccc(C)c(Sc2ncccn2)c1,-,inhibition,-,6.25 µg/mL,-,H37Rv,-,0%
CCCN1CN(C(C(=O)NC2C(=O)N3C(C(=O)O)=C(C)CSC23)c2ccccc2)CSC1=S,-,MIC bound,-,-,BACTEC,H37Rv,-,>12.5 µg/mL
CCCCCCCCCNC1CC(=O)N(CCCCCCCCC)C1=O,-,MIC,-,-,-,H37Ra,-,≤20 µg/mL
CC(=O)C(N=Nc1ccc(S(=O)(=O)NC2ONC(C)C2C)cc1)C(=O)Nc1ccccc1C,-,MIC bound,-,-,BACTEC,H37Rv,-,>12.5 µg/mL
Cc1[nH][nH]c(=O)c1N=Nc1ccc(-c2n[nH]c(=S)n2-c2ccccc2)cc1,-,MIC,-,-,-,H37Rv,-,>12.5 µg/mL

Repeating the first 5 entries:

smiles | changes | measure | cells | tested at | method | strain | setting | value
Cc1ccc(S(=O)(=O)NC(=O)OCCc2c3ccccc3nc3ccccc23)cc1 | - | MIC bound | - | - | BACTEC | H37Rv | - | ≤12.5 µg/mL
C[C@]1(COc2ccc(N3CCC(Oc4ccc(OC(F)(F)F)cc4)CC3)cc2)Cn2cc([N+](=O)[O-])nc2O1 | - | MIC | - | - | - | ATCC 25618 (H37RV) | - | 0.012 µg/mL
COc1c(N2CC[C@@H](C(C)(C)N)C2)c(F)cc2c(=O)c3c(=O)[nH]sc3n(C3CC3)c12 | - | MIC | - | - | - | Pan-susceptible clinical isolate 7 | - | 0.06 µg/mL
Cc1cccc(CSc2ncnc3nc[nH]c23)c1 | - | inhibition | - | 6.25 µg/mL | - | H37Rv | - | 0%
COc1ccc(C(=O)/C=C/c2ccccc2Cl)cc1 | - | MIC | - | - | resazurin | H37Rv | 21 d | 32 µg/mL